Reference: PubChem BioAssay AID1259414 (Drosophila RNAi Screening Center, 2018)

- Screen: 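Host factors increasing or decreasing Wolbachia levels in cultured fly cells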 (primary screen)
- System: Drosophila JW18 cells infected with Wolbachia
- Reagents: long dsRNA against Drosophila genes, 0.25 µg dsRNA per well of a 384-well plate
- Timing: 5 days
- Challenge: cells persistently infected with Wolbachia before knock-down; no added drug
- Detection: 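Automated imaging of bacterial rRNA staining divided by host cell count, reported as plate-normalised robust z-score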
- Direction: Wolbachia per cell robust z: higher = more Wolbachia per host cell than the plate typical
- Hit rule: 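Hit when robust z is 1.5 or more, or -1.5 or less, in at least two of three replicates; excludes dsRNAs with several or no targets, genes not expressed in JW18 and well A1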
The screen tested about 24,000 reagents; shown is an unselected part of those that have a named target and a result. Of all reagents, about 1,210 (5%) got an active call. 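Inactive calls also include excluded dsRNAs with several or no targets, genes unexpressed in JW18, and well A1, regardless of score.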 Names joined by + are all predicted targets of the reagent.

What is on record for scaf [DRSC04849]?
Wolbachia per cell robust z, rep 1: -0.599; Wolbachia per cell robust z, rep 2: 0.547; Wolbachia per cell robust z, rep 3: 0.526; call: inactive

With CG17187 [DRSC15181], what does the deposit list?
Wolbachia per cell robust z, rep 1: 0.604; Wolbachia per cell robust z, rep 2: -1.01; Wolbachia per cell robust z, rep 3: 0.14; call: inactive

With CG17187 [DRSC29903], how do the results read?
Wolbachia per cell robust z, rep 1: 1.93; Wolbachia per cell robust z, rep 2: 1.12; Wolbachia per cell robust z, rep 3: 1.57; call: active

With CG33912 [DRSC37815], how do the results read?
Wolbachia per cell robust z, rep 1: 0.638; Wolbachia per cell robust z, rep 2: 1.09; Wolbachia per cell robust z, rep 3: 0.277; call: inactive

What did the screen give for CG4734 [DRSC06885]?
Wolbachia per cell robust z, rep 1: 0.112; Wolbachia per cell robust z, rep 2: 0.415; Wolbachia per cell robust z, rep 3: -0.0673; call: inactive

How did the screen score CG4734 [DRSC22072]?
Wolbachia per cell robust z, rep 1: -0.445; Wolbachia per cell robust z, rep 2: -0.746; Wolbachia per cell robust z, rep 3: -0.633; call: inactive

With CG34184 [DRSC38644], what was measured?
Wolbachia per cell robust z, rep 1: -0.928; Wolbachia per cell robust z, rep 2: 0.000668; Wolbachia per cell robust z, rep 3: 0.647; call: inactive

For Obp47b + CG7741 [DRSC27574], what does the deposit list?
Wolbachia per cell robust z, rep 1: 0.403; Wolbachia per cell robust z, rep 2: -0.504; Wolbachia per cell robust z, rep 3: -0.404; call: inactive

With modSP [DRSC16726], how do the results read?
Wolbachia per cell robust z, rep 1: 0.412; Wolbachia per cell robust z, rep 2: 0.118; Wolbachia per cell robust z, rep 3: 0.625; call: inactive

With modSP [DRSC16857], what does the deposit list?
Wolbachia per cell robust z, rep 1: -0.583; Wolbachia per cell robust z, rep 2: -0.652; Wolbachia per cell robust z, rep 3: 0.352; call: inactive

Which result is listed for modSP [DRSC21489]?
Wolbachia per cell robust z, rep 1: -1.06; Wolbachia per cell robust z, rep 2: -1.56; Wolbachia per cell robust z, rep 3: -0.745; call: inactive

With Spase22-23 [DRSC15857], what does the deposit list?
Wolbachia per cell robust z, rep 1: 0.428; Wolbachia per cell robust z, rep 2: -2.31; Wolbachia per cell robust z, rep 3: 0.252; call: inactive

With Ppat-Dpck [DRSC09744], what does the deposit list?
Wolbachia per cell robust z, rep 1: -1.85; Wolbachia per cell robust z, rep 2: 0.287; Wolbachia per cell robust z, rep 3: 0.668; call: inactive

For Ppat-Dpck [DRSC41599], what does the deposit list?
Wolbachia per cell robust z, rep 1: -0.107; Wolbachia per cell robust z, rep 2: -1.65; Wolbachia per cell robust z, rep 3: -0.96; call: inactive

With TTLL3A [DRSC02143], what does the deposit list?
Wolbachia per cell robust z, rep 1: 1.12; Wolbachia per cell robust z, rep 2: 0.178; Wolbachia per cell robust z, rep 3: 1.25; call: inactive

Which result is listed for TTLL3A [DRSC28462]?
Wolbachia per cell robust z, rep 1: -0.634; Wolbachia per cell robust z, rep 2: -0.213; Wolbachia per cell robust z, rep 3: -1.19; call: inactive

How did the screen score CG1233 [DRSC08269]?
Wolbachia per cell robust z, rep 1: 0.763; Wolbachia per cell robust z, rep 2: -0.414; Wolbachia per cell robust z, rep 3: 0.229; call: inactive

For CG1233 [DRSC26110], what was measured?
Wolbachia per cell robust z, rep 1: -0.911; Wolbachia per cell robust z, rep 2: -1.39; Wolbachia per cell robust z, rep 3: -0.532; call: inactive

With Ugt303A1 [DRSC15641], what was measured?
Wolbachia per cell robust z, rep 1: -0.0774; Wolbachia per cell robust z, rep 2: 0.65; Wolbachia per cell robust z, rep 3: 0.16; call: inactive

For CG9503 [DRSC20186], what was measured?
Wolbachia per cell robust z, rep 1: -0.0902; Wolbachia per cell robust z, rep 2: 0.389; Wolbachia per cell robust z, rep 3: 0.0199; call: inactive

How did the screen score CG9503 [DRSC21766]?
Wolbachia per cell robust z, rep 1: 0.379; Wolbachia per cell robust z, rep 2: -0.284; Wolbachia per cell robust z, rep 3: -1.21; call: inactive

What is on record for SF1 [DRSC16844]?
Wolbachia per cell robust z, rep 1: 0.46; Wolbachia per cell robust z, rep 2: 0.938; Wolbachia per cell robust z, rep 3: -5.63; call: inactive

Which result is listed for Tob [DRSC20294]?
Wolbachia per cell robust z, rep 1: 0.277; Wolbachia per cell robust z, rep 2: -0.418; Wolbachia per cell robust z, rep 3: -1.19; call: inactive

For ND-B12 [DRSC04060], how do the results read?
Wolbachia per cell robust z, rep 1: -2.17; Wolbachia per cell robust z, rep 2: -0.3; Wolbachia per cell robust z, rep 3: 0.0244; call: inactive
